# Results deposited as PubChem BioAssay AID1259414 (Drosophila RNAi Screening Center, 2018).
# Aim: 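Genome-wide screen for host control of endosymbiont load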 (primary screen)
# Cells: Drosophila JW18 cells infected with Wolbachia
# Reagent: long dsRNA against Drosophila genes, 0.25 µg dsRNA per well of a 384-well plate
# Duration: 5 days
# Treatment: cells persistently infected with Wolbachia before knock-down; no added drug
# Measurement: 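Imaged fluorescence in situ signal for Wolbachia 23S rRNA per DAPI-counted host cell, given as a robust z-score within each plate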
# Scale: Wolbachia per cell robust z: higher = more Wolbachia per host cell than the plate typical
# Active means: 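Active if absolute robust z reaches 1.5 in two or more of three replicates, leaving out multi- or no-target dsRNAs, genes unexpressed in JW18 and A1 wells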
# The screen tested about 24,000 reagents; shown is a random part of those with a known target gene and a result. In the full data, about 1,210 (5%) are marked active. 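Inactive calls also include excluded dsRNAs with several or no targets, genes unexpressed in JW18, and well A1, regardless of score.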 Entries without a mark were called inactive. A plus sign joins genes that one reagent is predicted to hit.
predicted target,DRSC id,"Wolbachia per cell robust z, rep 1","Wolbachia per cell robust z, rep 2","Wolbachia per cell robust z, rep 3"
snoRNA:660 + Act57B,DRSC23472,1.01,-1.82,0.948
Tace (GeneID 43558),DRSC16340,0.689,-0.251,0.788
foi (GeneID 38976),DRSC10719,3.54 (active),3.91,7.69
foi (GeneID 38976),DRSC29596,0.696 (active),3.06,2.69
scf (GeneID 38145),DRSC08735,-1.47,0.389,0.125
lwr (GeneID 33226),DRSC00828,-0.347,1.01,2.01
lwr (GeneID 33226),DRSC27034,0.676,-1.32,0.763
comr (GeneID 37492),DRSC04138,0.331,0.542,0.214
CG2256 (GeneID 31727),DRSC18220,-1.59,-0.119,0.284
CG2256 (GeneID 31727),DRSC28187,-1.85,1.31,0.0927
CG12640 (GeneID 31973),DRSC17847,0.165,-0.0253,-1.17
CG12640 (GeneID 31973),DRSC26324,-1.21,0.316,0.106
CaMKI (GeneID 43792),DRSC17162,0.182,-0.695,-7.6
CG30323 (GeneID 246539),DRSC07656,0.445,0.808,-2.4
CG32187 (GeneID 39980),DRSC10521,0.838,1.06,0.854
Eig71Ee (GeneID 39706),DRSC11152,1.14,0.412,0.0675
CG32236 (GeneID 249170),DRSC08117,-2.13,-0.583,-0.506
boss (GeneID 43146),DRSC16916,0.389,0.628,0.499
boss (GeneID 43146),DRSC25941,0.151,0.044,-0.158
Cp19 (GeneID 39000),DRSC11121,-0.94,-0.273,0.943
Cp19 (GeneID 39000),DRSC28639,-0.229,0.305,0.408
CG7720 (GeneID 42257),DRSC16306,-0.542,0.349,0.339
CG7720 (GeneID 42257),DRSC16307,0.691,0.0733,1.34
Ugt302C1 (GeneID 53510),DRSC15353,-0.902,-0.767,0.424
Ugt302C1 (GeneID 53510),DRSC24517,-1.15,-0.829,-1.43
CG33792 (GeneID 3772111),DRSC38872,-0.215,-1.31,-2.55
Pgant1 (GeneID 36717),DRSC07095,-1.27,-0.592,0.256
CR31958 (GeneID 33603),DRSC00282,1.04,1.85,-1.41
CR31958 (GeneID 33603),DRSC21858,-3.42,-0.461,-1.35
CR31958 (GeneID 33603),DRSC25319,-1.67,0.219,-1.11
CG6421 (GeneID 46813),DRSC07420,0.446,-0.763,0.174
CG6421 (GeneID 46813),DRSC29544,0.683,0.731,1.18
Ent2 (GeneID 33921),DRSC02124,-0.128,-1.19,0.73
Ent2 (GeneID 33921),DRSC28879,-1.5,0.5,0.955
CG13407 (GeneID 42599),DRSC14583,-1.67,-0.732,-2.92
CG13407 (GeneID 42599),DRSC25675,-0.855,-0.0653,1.42
CG10984 (GeneID 39446),DRSC09817,-0.00412 (active),1.89,2.16
CG10984 (GeneID 39446),DRSC28387,0.318,1.44,0.72
CG32109 (GeneID 39444),DRSC09816,0.622,0.155,0.459
CG9029 (GeneID 33815),DRSC03129,-0.836,-1.17,-1.75
edin (GeneID 317900),DRSC09488,-0.228,-0.221,0.157
CG6357 (GeneID 36532),DRSC06979,-1.13,-6.87,0.0559
CG30184 (GeneID 246506),DRSC22277,0.901,0.857,0.754
CG30184 (GeneID 246506),DRSC29631,-0.309,-0.635,0.538
RpS20 (GeneID 42464),DRSC16836,0.301,1.07,0.988
PGRP-LA (GeneID 39062),DRSC10327,-0.0724,-5.93,-0.72
PGRP-LA (GeneID 39062),DRSC10414,0.449,-1.16,-1.46
CG4763 (GeneID 37771),DRSC04009,-0.184,-1.44,-7.53
CG4763 (GeneID 37771),DRSC04487,0.0756,-0.878,0.136
Kank (GeneID 36668),DRSC05513,-1.04,0.444,-0.0552
Kank (GeneID 36668),DRSC05933,0.906,-0.314,0.692
CG6583 (GeneID 34645),DRSC02972,-0.322,-2.05,-0.78
CG6583 (GeneID 34645),DRSC27517,1.83,1.15,0.857
CG14443 (GeneID 31595),DRSC17936,0.314,-0.6,-1.46
ari-1 (GeneID 32796),DRSC20308,0.541,-0.263,-3.42
ari-1 (GeneID 32796),DRSC21603,0.248,0.335,0.676
ari-1 (GeneID 32796),DRSC27556,1.75,0.17,0.737
Obp56c (GeneID 170882),DRSC06552,-5.35,-4.48,-3.08
Obp56c (GeneID 170882),DRSC22325,0.896,0.697,0.806
Obp56c (GeneID 170882),DRSC28276,-0.304,-0.182,-0.322
CG7352 (GeneID 40997),DRSC16233,1.81,-1.21,-0.0488
CG7006 (GeneID 42963),DRSC16169,0.522,-0.555,-2.59
Meltrin (GeneID 3772109),DRSC16274,0.0658,-7.54,2.7
Meltrin (GeneID 3772109),DRSC21693,0.0714,0.157,-1.15
CG7639 (GeneID 36675),DRSC07026,0.198,-3.23,-0.518
Slh (GeneID 33434),DRSC00407,-3.25 (active),-5.9,0.599
Slh (GeneID 33434),DRSC00789,1.34,0.731,1.19
Slh (GeneID 33434),DRSC27448,-3.98,0.703,-0.0033
